Values quoted from earlier work as cited in article PMC7767221, “Conjugates Containing Two and Three Trithiolato-Bridged Dinuclear Ruthenium(II)-Arene Units as In Vitro Antiparasitic and Anticancer Agents” (Pharmaceuticals, 2020).

Test system: A2780 ovarian cancer cells
Design: method as in PMID 30620038
Settings: ICP-MS; cited from earlier work

Row | Substance | Ru content found in the mitochondrial fraction
1 | [(η^6-p-MeC6H4Pr^i)2Ru2(µ2-S-p-C6H4R)3]^+ with R = p-Bu^t | up to 97%
2 | [(η^6-p-MeC6H4Pr^i)2Ru2(µ2-S-p-C6H4R)3]^+ with R = p-Me [A] | up to 97%
